Anti-infective test results gathered from many reports (values: NIAID ChemDB through PubChem).

Shared fields: growth or infection tests; organism: Mycobacterium tuberculosis

ECn is the concentration giving n% inhibition of infection, replication or growth. Conditions beyond the fields shown may differ between rows. MIC bound comes from a single tested concentration. Blank or dashed fields: not listed here. MIC50, MIC90 and the like: level of inhibition, or share of isolates inhibited. Two numbers with a dash give a range or band. Inhibition is in % at the dose shown (toxicity tests: loss of growth or viability).

| SMILES | dose | strain | changes | read by | endpoint | value |
|---|---|---|---|---|---|---|
| C=C1C(=O)O[C@@H]2CCN3CC=C(COC(=O)[C@@](C)(O)[C@]4(CO4)[C@@H]1C)[C@H]23 | 12.5 µg/mL | H37Rv | - | BACTEC | inhibition | 18% |
| Fc1cc(Nc2ncnc3ccccc23)ccc1N1CCc2sccc2C1 | - | H37Rv | - | luminescence | MIC50 | >20 µM |
| OO | 500 µM | H37Rv | - | colony count | inhibition | 17% |
| Nc1nc2c(C(=O)N3CCCC3)nnn2c2cccc(Cl)c12 | 12.5 µg/mL | H37Rv | - | BACTEC | inhibition | 5% |
| FC(F)(F)c1cccc(Oc2ccc(Nc3ncnc4ccccc34)cc2)c1 | - | H37Rv | - | luminescence | MIC50 | >40 µM |
| CO[C@H]1/C=C/O[C@@]2(C)Oc3c(C)c(O)c4c(O)c(c(/C=N/N5CCN(C)CC5)c(O)c4c3C2=O)NC(=O)/C(C)=C\C=C\[C@H](C)[C@H](O)[C@@H](C)[C@@H](O)[C@@H](C)[C@H](OC(C)=O)[C@@H]1C | - | Praha 131 | MDR | broth dilution | MIC99 | >8 µM |
| CC(=O)c1cc([N+](=O)[O-])c(N2CC(C)CC(C)C2)s1 | - | H37Rv | - | resazurin | MIC | 100 µg/mL |
| CNC(=O)[C@@H](C)[C@H]1C(=O)\C(=C(O)/C=C/C(C)=C/[C@@H](C)[C@@H]2O[C@]3(C)O[C@@H](CC[C@]34CO4)[C@@H]2C)C(=O)N1[C@@H]1CC[C@H](O)[C@H](C)O1 | - | H37Rv | - | resazurin | MIC90 | >200 µg/mL |
| COc1c(N2CCNC(C)C2)c(F)cc2c(=O)c(C(=O)O)cn(C3CC3)c12 | - | - | - | - | MIC | 0.12 µg/mL |
| FC(F)(F)Oc1ccc(CCNc2ncnc3cc(Cl)ccc23)cc1 | - | H37Rv | - | luminescence | MIC50 | >20 µM |
| Cc1c2c(c(C)c3c4c(oc13)CCCC4)C=NCC2 | 6.25 µg/mL | H37Rv | - | resazurin | inhibition | 101% |
| COc1ccn2nc(C)c(C(=O)NCc3ccc(-c4ccc(OC(F)(F)F)cc4)c(C)c3)c2c1 | - | H37Rv | - | fluorescence | MIC | 0.013 µg/mL |
| CC[C@H]1CN2CCc3cc(OC)c(OC)cc3[C@@H]2C[C@@H]1C[C@H]1NCCc2c1[nH]c1ccc(O)cc21 | 6.25 µg/mL | H37Rv | - | resazurin | inhibition | 26% |
| CC[C@@H](CO)NCCN[C@@H](CC)CO | - | Praha 131 | MDR | broth dilution | MIC99 | 32 µM |
| FC(F)(F)c1ccc(N2CCN(c3ccc(Nc4ncnc5ccccc45)cc3)CC2)nc1 | - | H37Rv | - | luminescence | MIC50 | >20 µM |
| CC1=NN(c2ccccc2)C(=O)C1N=Nc1cc(Cl)cc(S(=O)(=O)O)c1O | - | H37Rv | - | BACTEC | MIC | ≥12.5 µg/mL |
| COc1ccc([C@](O)(CCN(C)C)[C@@H](c2cc3cc(C#N)ccc3nc2OC)c2cccc(OC)c2OC)cn1 | - | H37Rv | - | luminescence | MIC90 | 2.1 µg/mL |
| Cc1nc(NCCc2ccc(OC(F)(F)F)cc2)c2ccc(F)cc2n1 | - | H37Rv | - | luminescence | MIC50 | 4.82 µM |
| NNC(=O)c1ccncc1 | - | 8666/2010 | MDR | broth dilution | MIC99 | 64 µM |
| CC(=O)c1cc([N+](=O)[O-])c(N2CCC(C)CC2)s1 | - | ss18b | - | resazurin | MIC | >100 µg/mL |
| Cc1ccc(C2(C)OC(CCl)CS2)c(C)c1 | 12.5 µg/mL | H37Rv | - | BACTEC | inhibition | 16% |
| O=[N+]([O-])c1cn2c(n1)OC[C@H](OCc1ccc(OC(F)(F)F)cc1)C2 | - | ss18b | - | resazurin | MIC | 0.156 µg/mL |
| COC(=O)C1=C(C)N(c2ccc(Br)cc2)C(C)=C(C(=O)OC)C1c1ccc(-c2ccc(F)c(Cl)c2)o1 | 6.25 µg/mL | H37Rv | - | BACTEC / radiometric | inhibition | 14% |
| COc1cccc([C@H](c2cc3cc(C#N)ccc3nc2OC)[C@@](O)(CCN(C)C)c2ccc(C)nc2)c1OC | - | H37Rv | - | fluorescence | MIC90 | >5 µg/mL |
| COc1ccn2nc(C)c(C(=O)NCc3ccc(-c4ccc(OC(F)(F)F)cc4)cc3F)c2c1 | - | H37Rv | - | fluorescence | MIC | <0.02 µg/mL |
| FC(F)(F)c1ccc(Oc2ccc(Nc3ncnc4cc[nH]c34)cc2)cc1 | - | H37Rv | - | luminescence | MIC50 | >20 µM |
| CO[C@H]1/C=C/O[C@@]2(C)Oc3c(C)c(O)c4c(O)c(c5c(c4c3C2=O)NC2(CCN(CC(C)C)CC2)N=5)=NC(=O)/C(C)=C\C=C\[C@H](C)[C@H](O)[C@@H](C)[C@@H](O)[C@@H](C)[C@H](OC(C)=O)[C@@H]1C | - | 1620-4 | - | - | MBC | 0.125 µg/mL |
| CC(=O)N(C)c1ccc(Nc2cc(S(=O)(=O)O)c(N)c3c2C(=O)c2ccccc2C3=O)cc1 | 12.5 µg/mL | H37Rv | - | BACTEC | inhibition | 7% |
| NC(=O)c1cnccn1 | - | ATCC 35828 niacin-positive | - | - | MIC | >2048 µg/mL |
| COc1c(N2C[C@@H]3C(CN)[C@@H]3C2)c(F)cc2c(=O)c(C(=O)O)cn(-c3ccc(F)cc3F)c12 | - | - | - | - | MIC | 128 µg/mL |
| CC(C)C1=CC2(O)CCC3C(C)(C(=O)O)CCCC3(C)C2CC1=O | - | H37Rv | - | BACTEC | MIC bound | >12.5 µg/mL |
| CN[C@@H]1[C@@H](O)[C@@H](O[C@@H]2[C@@H](O)[C@H](O[C@H]3O[C@H](CN)CC[C@H]3N)[C@@H](N)C[C@H]2N)OC[C@]1(C)O | - | Praha 4 | MDR | broth dilution | MIC99 | 0.5 µM |
| COC(=O)C1=C(C)N(c2ccc(OC)cc2)C(C)=C(C(=O)OC)C1c1ccc(-c2ccc(F)c(Cl)c2)o1 | 6.25 µg/mL | H37Rv | - | BACTEC / radiometric | inhibition | 14% |
| C[C@@H]1CN(c2c(F)c(N)c3c(=O)c(C(=O)O)cn(C4CC4)c3c2F)C[C@H](C)N1 | - | - | - | - | MIC | 0.25 µg/mL |
| COc1cc(O)cc2c1C(=O)O[C@@H](C)CCCCCCC2 | - | - | - | agar / visual reading | MIC | ≥200 µg/mL |
| COc1ccc(C(C)NNC(=O)c2cc[n+]([B]C#N)cc2)cc1F | 0.5 µM | - | - | BACTEC | inhibition | 0% |
| CO[C@H]1/C=C/O[C@@]2(C)Oc3c(C)c(O)c4c(O)c(c(/C=N/N5CCN(C6CCCC6)CC5)c(O)c4c3C2=O)NC(=O)/C(C)=C\C=C\[C@H](C)[C@H](O)[C@@H](C)[C@@H](O)[C@@H](C)[C@H](OC(C)=O)[C@@H]1C | - | 1029 | - | - | MIC | 0.16 µg/mL |
| CC1CCCN(c2ccc([N+](=O)[O-])s2)C1 | - | H37Rv | - | resazurin | MIC | 6.25 µg/mL |
| CCOC(=O)C1=C(C)N(c2ccc(Br)cc2)C(C)=C(C(=O)OCC)C1c1ccc(-c2ccc(F)c(Cl)c2)o1 | 6.25 µg/mL | H37Rv | - | BACTEC / radiometric | inhibition | 6% |
| COc1ccn2nc(C)c(C(=O)NCc3ccc(-c4ccc(OC(F)(F)F)cc4)cn3)c2c1 | - | H37Rv | Rifampicin-resistant | fluorescence | MIC | <0.002 µg/mL |
| Nc1c(C(=O)Nc2ccc(NC(=O)c3ccc4c(c3N)C(=O)c3ccccc3C4=O)c3c2C(=O)c2ccccc2C3=O)ccc2c1C(=O)c1ccccc1C2=O | - | H37Rv | - | BACTEC | MIC bound | >12.5 µg/mL |
| FC(F)(F)c1cnc(Oc2ccc(Nc3ncnc4ccccc34)cc2)c(Cl)c1 | - | H37Rv | - | luminescence | MIC50 | >50 µM |
| O=C(O)/C=C/c1cnccn1 | 12.5 µg/mL | H37Rv | - | BACTEC | inhibition | 7% |
| O=[N+]([O-])c1ccccc1C=NC[C@@H](O)[C@@H](O)[C@H](O)[C@H](O)CN=Cc1ccccc1[N+](=O)[O-] | - | H37Rv (ATCC 27294) | - | - | MIC | 12.5 µg/mL |
| Cc1nc2c(cc1C(=O)N/N=C/c1ccc([N+](=O)[O-])cc1)c(=O)n(C)c(=O)n2C | 6.25 µg/mL | H37Rv | - | resazurin | inhibition | -15% |
| CC(C)N=c1cc2n(-c3ccc(Cl)cc3)c3ccccc3nc-2cc1Nc1ccc(Cl)cc1 | - | 234/2005 | MDR | broth dilution | MIC99 | 0.125 µM |
| CCOC(=O)C1=C(C)N(c2ccc(OC)cc2)C(C)=C(C(=O)OCC)C1c1ccc(-c2ccc(F)c(Cl)c2)o1 | 6.25 µg/mL | H37Rv | - | BACTEC / radiometric | inhibition | 61% |
| Cc1ccc2nc(-c3ccc(N=NNc4ccc(-c5nc6ccc(C)c(S(=O)(=O)O)c6s5)cc4)cc3)sc2c1S(=O)(=O)O | - | H37Rv | - | BACTEC | MIC bound | >6.25 µg/mL |
| COc1cc(O)c2c(=O)c(-c3ccc(O)cc3O)coc2c1 | - | - | - | agar / visual reading | MIC | 110 µg/mL |
| COC(=O)C1=C(C)N(c2cccc(Cl)c2)C(C)=C(C(=O)OC)C1c1ccc(-c2ccc(F)c(Cl)c2)o1 | 6.25 µg/mL | H37Rv | - | BACTEC / radiometric | inhibition | 27% |
| O=[N+]([O-])c1ccc(C=NC[C@@H](O)[C@@H](O)[C@H](O)[C@H](O)CN=Cc2ccc([N+](=O)[O-])cc2)cc1 | - | H37Rv (ATCC 27294) | - | - | MIC | 25 µg/mL |
| NC[C@@H]1O[C@H](O[C@H]2[C@@H](O)[C@H](O[C@@H]3[C@@H](O)[C@H](N)C[C@H](N)[C@H]3O[C@H]3O[C@H](CO)[C@@H](O)C[C@H]3N)O[C@@H]2CO)[C@H](N)[C@@H](O)[C@@H]1O[C@H]1O[C@H](CO)[C@@H](O)[C@H](O)[C@@H]1O | - | Aoyama B (ethionamide-resistant) | - | - | EC50 | 25–50 µg/mL |
| O=C(c1ccc(CNc2ncnc3ccccc23)cc1)N1CCOCC1 | - | H37Rv | - | luminescence | MIC50 | 34.9 µM |
| O[C@@H]([C@H](O)[C@H](O)CN=Cc1cccc(Cl)c1)[C@H](O)CN=Cc1cccc(Cl)c1 | - | H37Rv (ATCC 27294) | - | - | MIC | >100 µg/mL |
| FC(F)(F)c1ccc(Oc2ccc(Nc3ncnc4ccsc34)cc2)cc1 | - | H37Rv | - | luminescence | MIC50 | >20 µM |
| NCC[C@H](O)C(=O)N[C@@H]1C[C@H](N)[C@@H](O[C@H]2O[C@H](CN)[C@@H](O)[C@H](O)[C@H]2O)[C@H](O)[C@H]1O[C@H]1O[C@H](CO)[C@@H](O)[C@H](N)[C@H]1O | - | 234/2005 | MDR | broth dilution | MIC99 | 0.5 µM |
| Cc1nc(Nc2ccc(Oc3ccc(C(F)(F)F)cc3)cc2)c2ccc(F)cc2n1 | - | H37Rv | - | luminescence | MIC50 | >20 µM |
| c1cc2c3c(cccc3c1)NC1(CCC3(CC1)Nc1cccc4cccc(c14)N3)N2 | - | H37Rv | - | BACTEC | MIC bound | ≤128 µg/mL |
| c1ccc(-c2cc3cc(Nc4ncnc5ccccc45)ccc3o2)cc1 | - | H37Rv | - | luminescence | MIC50 | >20 µM |
| CC(=O)Nc1ncc([N+](=O)[O-])s1 | 6.25 µg/mL | H37Rv | - | resazurin | inhibition | -4% |
| FC(F)(F)c1ccc(Oc2ccc(Nc3ncnc4ccccc34)cc2)cc1 | - | H37Rv | - | luminescence | MIC50 | >20 µM |
| CNC1[C@H]2CN(c3nc4c(cc3F)c(=O)c(C(=O)O)cn4-c3ccc(F)cc3F)C[C@@H]12 | - | - | - | - | MIC | 16 µg/mL |
| Fc1ccc(C2CCN(c3ccc(Nc4ncnc5ccccc45)cc3)CC2)cc1 | - | H37Rv | - | luminescence | MIC50 | >50 µM |
| O=C1CN(/N=C/c2ccc(-c3ccc(Cl)c(Cl)c3)o2)C(=O)N1 | - | H37Rv | - | BACTEC | MIC bound | >12.5 µg/mL |
| Cc1cc(C)nc(Oc2ccc(Nc3ncnc4ccccc34)cc2)n1 | - | H37Rv | - | luminescence | MIC50 | >20 µM |
| O[C@@H]([C@H](O)[C@H](O)CN=Cc1ccc(Cl)cc1)[C@H](O)CN=Cc1ccc(Cl)cc1 | - | H37Rv (ATCC 27294) | - | - | MIC | >100 µg/mL |
| CCN(CC)C(=S)SCCC(N)=O | 128 µg/mL | H37Rv | - | BACTEC | inhibition | 49% |
| Clc1ccc(-c2nc3ccc(Nc4ncnc5ccccc45)cc3o2)cc1 | - | H37Rv | - | luminescence | MIC50 | >50 µM |
| CC1=NN(c2ccc(S(=O)(=O)O)cc2)C(=O)C1N=Nc1ccc(C)c(S(=O)(=O)Nc2ccccc2)c1 | - | H37Rv | - | BACTEC | MIC bound | >12.5 µg/mL |
| Fc1ccc(Oc2cccc(CNc3ncnc4ccccc34)c2)cc1 | - | H37Rv | - | luminescence | MIC50 | >50 µM |
| O=c1c2nccnc2nc2n1CCCCC2 | - | H37Rv | - | resazurin | MIC bound | >6.25 µg/mL |
| Fc1ccc2c(Nc3ccc(-c4cccc(C(F)(F)F)c4)cc3)ncnc2c1 | - | H37Rv | - | luminescence | MIC50 | >50 µM |
| CCN(CC)CC1CCCCN1CC(=O)N1c2ccccc2NC(=O)CC1C | 12.5 µg/mL | H37Rv | - | BACTEC | inhibition | 6% |
| Fc1cc(CNc2ncnc3ccccc23)ccc1N1CCN(c2ccc(C(F)(F)F)cn2)CC1 | - | H37Rv | - | luminescence | MIC50 | >50 µM |

5 of the rows above, restated:

SMILES	dose	strain	changes	read by	endpoint	value
COc1ccn2nc(C)c(C(=O)NCc3ccc(-c4ccc(OC(F)(F)F)cc4)cn3)c2c1	-	H37Rv	Rifampicin-resistant	fluorescence	MIC	<0.002 µg/mL
CC(C)N=c1cc2n(-c3ccc(Cl)cc3)c3ccccc3nc-2cc1Nc1ccc(Cl)cc1	-	234/2005	MDR	broth dilution	MIC99	0.125 µM
OO	500 µM	H37Rv	-	colony count	inhibition	17%
O=C(O)/C=C/c1cnccn1	12.5 µg/mL	H37Rv	-	BACTEC	inhibition	7%
CCOC(=O)C1=C(C)N(c2ccc(OC)cc2)C(C)=C(C(=O)OCC)C1c1ccc(-c2ccc(F)c(Cl)c2)o1	6.25 µg/mL	H37Rv	-	BACTEC / radiometric	inhibition	61%